Anti-infective test results gathered from many reports (values: NIAID ChemDB through PubChem).

Common to all: host cell toxicity; cells: MT-4; endpoint: CC50

Blank or dashed fields: not listed here. CCn: concentration that lowers growth or viability of the cells by n%. Rows are shuffled and stem from different studies.

| compound | read by | value |
|---|---|---|
| Cc1ccc(S(=O)(=O)NC(Cc2ccccc2)c2nnc(SCc3ccc(F)cc3)o2)cc1 |  | 90.83 µg/mL |
| Cc1c(Cc2ccc3ccccc3c2)n(COCc2ccccc2)c(=O)[nH]c1=O |  | 34.1 µM |
| Cc1cn([C@H]2C[C@H](N=[N+]=[N-])[C@@H](COP(=O)(Nc3cc(C(=O)Nc4cc(C(=O)Nc5cc(C(=O)NCCC(=N)N)n(C)c5)n(C)c4)n(C)c3)OC3CCCCC3)O2)c(=O)[nH]c1=O | MTT | 42 µM |
| CSCCC(NS(=O)(=O)c1ccc(C)cc1)c1nnc(SCc2ccccc2)o1 |  | 30.48 µg/mL |
| COc1c(C(=O)/C=C(/C)Nc2ccc([N+](=O)[O-])cc2)c(O)c(S(=O)(=O)Oc2ccc(F)cc2)c2occc12 | MTT | 460 µM |
| CCCc1c(Cc2ccc3ccccc3c2)n(COC)c(=O)[nH]c1=O |  | 71.7 µM |
| CCOC(=O)c1cn(CC(O)CNc2ccccc2C)cc1-c1ccccc1 |  | 33 µM |
| CCc1c(-c2coc(CC/C(C)=C/c3ccccc3)n2)oc(OC)c(C)c1=O |  | >6.6 µM |
| Cc1c(Cc2ccc3ccccc3c2)n(COCCO)c(=O)[nH]c1=O |  | 143 µM |
| COc1cc(OC(F)(F)F)cc(-c2cc(-c3nccc4c3CNC4=O)nn2-c2ccc(F)c(Cl)c2)c1 | resazurin | >3.3 µM |
| Cc1cn([C@H]2C[C@H](N=[N+]=[N-])[C@@H](CO)O2)c(=O)[nH]c1=O | luminescence | 10 µM |
| CC(=O)OCC(=O)O[C@@H]1[C@H]2[C@@H](OC(=O)c3ccccc3)[C@@H](C)C[C@]2(O)[C@H](OC(C)=O)[C@]2(C)C(OC(C)=O)[C@@]1(OC(C)=O)C[C@H]1C(=O)C(C)(C)C[C@@H]12 | MTT | >100 µg/mL |
| Cc1cc(Br)cnc1NC(=S)NCCc1c(F)cccc1F |  | >25 µg/mL |
| O=C1NCc2c1ccnc2-c1cc(-c2cccc(OC(F)F)c2)n(-c2ccc(F)c(Cl)c2)n1 | resazurin | >3.3 µM |
| CCOCn1c(Cc2cccc3ccccc23)c(C(C)C)c(=O)[nH]c1=O |  | 38.3 µM |
| N#Cc1cc(-n2nc(-c3cccc4c3CNC4=O)cc2-c2cc(F)cc(Cl)c2)ccc1F | resazurin | >3.3 µM |
| Cc1cn([C@H]2C=C[C@@H](COP(=O)(Nc3cc(C(=O)Nc4cc(C(=O)Nc5cc(C(=O)NCCC#N)n(C)c5)n(C)c4)n(C)c3)OC(C)C)O2)c(=O)[nH]c1=O | MTT | 137 µM |
| CC(C)c1c(Cc2cccc3ccccc23)n(COCc2ccccc2)c(=O)[nH]c1=O |  | 29.9 µM |
| CSCCC(NS(=O)(=O)c1ccc(Cl)cc1)c1nnc(SCc2ccc(Br)cc2)o1 |  | >12.3 µg/mL |
| CC[C@@H]1C=CC[C@@H](n2cnc3c(N)ncnc32)O1 |  | >100 µM |
| O=S(=O)(O)OCCCCCCCCCCCCO[C@@H]1O[C@H](COS(=O)(=O)O)[C@@H](OS(=O)(=O)O)[C@H](O[C@@H]2O[C@H](COS(=O)(=O)O)[C@@H](OS(=O)(=O)O)[C@H](O[C@@H]3O[C@H](COS(=O)(=O)O)[C@@H](OS(=O)(=O)O)[C@H](O[C@@H]4O[C@H](COS(=O)(=O)O)[C@@H](OS(=O)(=O)O)[C@H](O[C@@H]5O[C@H](COS(=O)(=O)O)[C@@H](OS(=O)(=O)O)[C@H](OS(=O)(=O)O)[C@H]5OS(=O)(=O)O)[C@H]4OS(=O)(=O)O)[C@H]3OS(=O)(=O)O)[C@H]2OS(=O)(=O)O)[C@H]1OS(=O)(=O)O |  | >1000 µg/mL |
| N#Cc1cnn2c1nnc1cc(Cl)ccc12 |  | 4.5 µM |
| CC1=C(C(=O)Nc2ccc(F)cc2)C2=NN=C(N)C2C(=O)N1 | MTT | 89 µg/mL |
| N#Cc1cccc(-c2cc(-c3nccc4c3CNC4=O)nn2-c2ccc(F)cc2)c1 | resazurin | >3.3 µM |
| CCOC(=O)c1cn(CC(O)CNc2cccc(N)c2)cc1-c1ccccc1 |  | 4.3 µM |
| Cc1cn(C2C[C@H](N=[N+]=[N-])[C@@H](COP(=O)(Nc3cc(C(=O)Nc4cc(C(=O)Nc5cc(C(=O)NCCC#N)n(C)c5)n(C)c4)n(C)c3)OC(C)C)O2)c(=O)[nH]c1=O | MTT | 82 µM |
| Nc1ccn([C@H]2CC=C[C@@H](CO)O2)c(=O)n1 |  | >100 µM |
| Cc1ccnc(NC(=S)NCCc2c(F)cccc2F)c1 |  | >5 µg/mL |
| N#Cc1cnn2c1n[n+]([O-])c1ccc(Cl)cc12 |  | 25 µM |
| Cc1ccc(S(=O)(=O)NC(C)c2nnc(SCc3ccc(Br)cc3)o2)cc1 |  | 75.33 µg/mL |
| Fc1cccc(F)c1CCNC(=S)Nc1cccc(Cl)n1 |  | >5 µg/mL |
| CC1=C(C(=O)Nc2ccc(Cl)cc2)C2=NN=C(N)C2C(=O)N1 | MTT | 92.6 µg/mL |
| CCCCCCCCCCCCOC1OC(COS(=O)(=O)O)C(OS(=O)(=O)O)C(OC2OC(COS(=O)(=O)O)C(OS(=O)(=O)O)C(OC3OC(COS(=O)(=O)O)C(OS(=O)(=O)O)C(OC4OC(COS(=O)(=O)O)C(OS(=O)(=O)O)C(OC5OC(COS(=O)(=O)O)C(OS(=O)(=O)O)C(OS(=O)(=O)O)C5OS(=O)(=O)O)C4OS(=O)(=O)O)C3OS(=O)(=O)O)C2OS(=O)(=O)O)C1OS(=O)(=O)O |  | >1000 µg/mL |
| COc1cccnc1NC(=S)NCCc1c(F)cccc1F |  | 4.61 µg/mL |
| CCOC(=O)c1ccccc1SCC(O)Cn1cc(C(=O)OCC)c(-c2ccccc2)c1 |  | 50 µM |
| COc1c(C(=O)/C=C(/C)Nc2ccc(F)cc2)c(O)c(S(=O)(=O)Oc2ccc(F)cc2)c2occc12 | MTT | 340 µM |
| N#Cc1cnn2c1n[n+]([O-])c1cc(Cl)ccc12 |  | 13 µM |
| O=c1ccn([C@@H]2C=CC[C@@H](CO)O2)c(=O)[nH]1 |  | >100 µM |
| CC(C)(C)NC(=O)c1ccccc1NCC(O)Cn1c(C(=O)NC(C)(C)C)cc2cc(Cl)ccc21 |  | 66 µM |
| CCCCCCO[C@@H]1O[C@H](COS(=O)(=O)O)[C@@H](OS(=O)(=O)O)[C@H](O[C@@H]2O[C@H](COS(=O)(=O)O)[C@@H](OS(=O)(=O)O)[C@H](O[C@@H]3O[C@H](COS(=O)(=O)O)[C@@H](OS(=O)(=O)O)[C@H](O[C@@H]4O[C@H](COS(=O)(=O)O)[C@@H](OS(=O)(=O)O)[C@H](OS(=O)(=O)O)[C@H]4OS(=O)(=O)O)[C@H]3OS(=O)(=O)O)[C@H]2OS(=O)(=O)O)[C@H]1OS(=O)(=O)O |  | >1000 µg/mL |
| Cc1cn([C@H]2C=C[C@@H](COP(=O)(Nc3cc(C(=O)Nc4cc(C(=O)Nc5cc(C(=O)NCCC(=N)N)n(C)c5)n(C)c4)n(C)c3)OC(C)C)O2)c(=O)[nH]c1=O | MTT | 98 µM |
| O=C1NCc2c1ccnc2-c1cc(-c2cc(Br)cc(OC(F)F)c2)n(-c2ccnc(Cl)c2)n1 | resazurin | >3.3 µM |
| CC(=O)O[C@@H]1[C@H](C)[C@H](OC(=O)c2ccccc2)[C@@H]2[C@@H](OC(C)=O)[C@]3(C)C[C@@]4(OC(C)=O)C(=O)C(C)(C)C[C@H]4[C@]3(C)[C@@H](OC(C)=O)[C@]21O | MTT | 70 µg/mL |
| Fc1cccc(F)c1CCNC(=S)Nc1ncc(Br)cn1 |  | >5 µg/mL |
| CSCCC(c1nnc(SCc2ccc(Br)cc2)o1)N(Cc1ccc(Br)cc1)S(=O)(=O)c1ccc(C)cc1 |  | >125 µg/mL |
| COc1c(C(=O)/C=C(/C)Nc2ccccc2)c(O)c(S(=O)(=O)OC2CCCC2)c2occc12 | MTT | 450 µM |
| CC1=C(C(=O)Nc2ccc(F)c(F)c2)C2=NN=C(N)C2C(=O)N1 | MTT | 99.03 µg/mL |
| O=C1NCc2c1ccnc2-c1cc(-c2cc(Cl)cc(OC(F)F)c2)n(-c2ccnc(Cl)c2)n1 | resazurin | >3.3 µM |
| [O-][n+]1nc2c(-c3ccccc3)cnn2c2ccccc21 |  | >200 µM |
| COc1cc([N+](=O)[O-])ccc1NC(=O)C1=C(C)NC(=O)C2C(N)=NN=C12 | MTT | 81.1 µg/mL |
| CCOC(=O)c1cn(CC(O)CNc2ccccc2)cc1-c1ccccc1 |  | 45 µM |
| O=C1NCc2c1ccnc2-c1cc(-c2cc(F)cc(Cl)c2)n(-c2cccnc2)n1 | resazurin | >3.3 µM |
| Cc1cn([C@H]2C[C@H](N=[N+]=[N-])[C@@H](COP(=O)(Nc3cc(C(=O)Nc4cc(C(=O)NCCC(=N)N)n(C)c4)n(C)c3)OC3CCCCC3)O2)c(=O)[nH]c1=O | MTT | 166 µM |
| C=CCNc1nn2c(=O)c3ccccc3nc2s1 | MTT | >66.8 µg/mL |
| O=[N+]([O-])c1ccc2c(c1)[n+]([O-])nc1ccnn12 |  | 39 µM |
| CSCCC(NS(=O)(=O)c1ccc(Cl)cc1)c1nnc(SCc2ccccc2)o1 |  | 12.67 µg/mL |
| O=C1NCc2c1ccnc2-c1cc(-c2cc(F)cc(Cl)c2)n(-c2ccc(F)c(Cl)c2)n1 | resazurin | >3.3 µM |
| O=c1ccn([C@H]2C=CC[C@@H](CO)O2)c(=O)[nH]1 |  | >100 µM |
| [O-][n+]1nc2ccnn2c2cc(Cl)ccc21 |  | >200 µM |
| CC1=C(C(=O)Nc2ccc(F)c(Cl)c2)C2=NN=C(N)C2C(=O)N1 | MTT | 18.4 µg/mL |
| O=c1c2ccccc2nc2sc(Nc3ccccc3)nn12 | MTT | >35.3 µg/mL |
| CC1(C)CC=C(c2cn(-c3nccc(C(=O)NC4CCC(N5CC6CCC(C5)O6)CC4)n3)c3ccc(F)c([C@H](OC(C)(C)C)C(=O)O)c23)CC1 | luminescence | 5.158 µM |
| CCCCCCCCCCO[C@@H]1O[C@H](COS(=O)(=O)O)[C@@H](OS(=O)(=O)O)[C@H](O[C@@H]2O[C@H](COS(=O)(=O)O)[C@@H](OS(=O)(=O)O)[C@H](O[C@@H]3O[C@H](COS(=O)(=O)O)[C@@H](OS(=O)(=O)O)[C@H](O[C@@H]4O[C@H](COS(=O)(=O)O)[C@@H](OS(=O)(=O)O)[C@H](OS(=O)(=O)O)[C@H]4OS(=O)(=O)O)[C@H]3OS(=O)(=O)O)[C@H]2OS(=O)(=O)O)[C@H]1OS(=O)(=O)O |  | >1000 µg/mL |
| Clc1ccc2c(c1)nnc1c(Br)cnn12 |  | >200 µM |
| C=C1[C@H](OC(C)=O)[C@H]2[C@@H](OC(C)=O)[C@](C)(OC(C)=O)C[C@]2(OC(C)=O)C(=O)[C@@H](C)/C=C/C(C)(C)C(=O)[C@@H](OCC(C)C)[C@H]1OC(C)=O | MTT | 69 µg/mL |
| Cc1ccc(S(=O)(=O)NC(Cc2ccccc2)c2nnc(SCc3ccc(Cl)cc3)o2)cc1 |  | 99.4 µg/mL |
| Nc1ccn([C@@H]2C=CC[C@@H](CO)O2)c(=O)n1 |  | >100 µM |
| COc1c(-c2cc(C)on2)c(O)c(S(=O)(=O)Oc2ccc(F)cc2)c2occc12 | MTT | 260 µM |
| O=C1NCc2c1cccc2-c1cc(-c2cc(F)cc(Cl)c2)n(-c2cccnc2)n1 | resazurin | >3.3 µM |
| COc1c(-c2cc(C)n(C)n2)c(O)c(S(=O)(=O)Oc2ccc([N+](=O)[O-])cc2)c2occc12 | MTT | 140 µM |
| CC(=O)OC1[C@@]2(OC(C)=O)CC3=C([C@H](OC(C)=O)C(C)(C)C3=O)[C@]1(C)[C@H](OC(C)=O)[C@@]1(O)C[C@H](C)[C@H](OC(=O)c3ccccc3)[C@@H]1[C@H]2OC(C)=O | MTT | >100 µg/mL |
| CCOC(=O)c1cnn2c1nnc1ccccc12 |  | >200 µM |
| COc1ccc(OS(=O)(=O)c2c(O)c(-c3cc(C)on3)c(OC)c3ccoc23)cc1 | MTT | 250 µM |

A second listing of 4 rows from above:

| compound | read by | value |
|---|---|---|
| [O-][n+]1nc2c(-c3ccccc3)cnn2c2ccccc21 |  | >200 µM |
| Cc1cn([C@H]2C[C@H](N=[N+]=[N-])[C@@H](CO)O2)c(=O)[nH]c1=O | luminescence | 10 µM |
| Cc1c(Cc2ccc3ccccc3c2)n(COCc2ccccc2)c(=O)[nH]c1=O |  | 34.1 µM |
| O=c1ccn([C@H]2C=CC[C@@H](CO)O2)c(=O)[nH]1 |  | >100 µM |